The values below come from PMC9040587.

The exact form of at least one protein or probe is not confirmed.

In this data set the target is KdgR-6xHis (Klebsiella pneumoniae ST11 isolate KP-1S) (UniProt A6TAZ8). In words: EMSA. The settings on record: not stated (EMSA done according to cited procedure, ref 41); recombinant protein; residues 1-263; probe letters rebuilt from the primers and the genome. A general note: A gel shift assay detects complexes by their altered migration in electrophoresis.

Consider “TTATGCGCCGTGCTTTGCCGAACCCTTATTTTTCCCCTCCCTCTTTCACTCTCCCCGGCGAAATTATTGAGCTTCGTCACGTCTTGTTGTGCCACCTTTTTTGAAACAAATAACTACGATCCTGGTCACTAAAACTATGGTGTCTAAAAAATAAAATGATGTTTCATAAAAACGAAATGTCATTTTATTTATTGTAAGGGTACCCT (double strand) [ompK26 promoter 201 bp]”, for which the binding result is “binds”.
